This assay addresses recombinant HCV NS5B (HCV RNA-dependent RNA polymerase) (Hepatitis C virus genotype 1b, UniProt P26663). Nature of the assay: In vitro HCV RdRp Flashplate scintillation proximity assay (STREP-FLASH ASSAY). The class given is biochemical. The conditions noted are these: read-out: IC50 (polymerase activity), list of compounds of Example 27. In general terms: Scintillation proximity formats need no separation of bound from free tracer.

Sequences of proteins named here, by UniProt entry; tags and fusion partners are left off. Residues count along the entry.
UniProt P26663, 2420-3010 limits assumed: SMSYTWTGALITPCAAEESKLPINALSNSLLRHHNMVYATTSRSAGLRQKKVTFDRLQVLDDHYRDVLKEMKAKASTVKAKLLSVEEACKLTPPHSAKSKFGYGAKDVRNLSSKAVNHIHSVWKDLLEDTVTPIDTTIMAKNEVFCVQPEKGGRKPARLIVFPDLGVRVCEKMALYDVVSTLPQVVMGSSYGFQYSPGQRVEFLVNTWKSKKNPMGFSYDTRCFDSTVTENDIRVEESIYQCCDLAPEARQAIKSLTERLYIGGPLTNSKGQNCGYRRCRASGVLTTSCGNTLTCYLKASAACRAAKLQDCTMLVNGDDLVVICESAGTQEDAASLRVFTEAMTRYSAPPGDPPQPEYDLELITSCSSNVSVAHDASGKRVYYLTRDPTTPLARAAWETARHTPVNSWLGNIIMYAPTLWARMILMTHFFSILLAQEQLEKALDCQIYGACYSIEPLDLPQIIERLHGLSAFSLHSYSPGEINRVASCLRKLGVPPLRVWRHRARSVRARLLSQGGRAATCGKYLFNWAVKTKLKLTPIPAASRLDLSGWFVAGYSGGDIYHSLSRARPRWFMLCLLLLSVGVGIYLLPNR

This passage reports IC50 results from patent US6881741B2 (ViroChem Pharma Inc., priority 2001, dated 2005).

Structures are written as SMILES. Some compounds may have been tested in ways that are not shown here.

In general, IC50 refers to the midpoint of a concentration-inhibition curve. With `CN1CCC(N(C(=O)c2ccc(Cl)cc2Cl)c2cc(-c3ccccc3)sc2C(=O)O)CC1`, the IC50 was 5 to 20 µM. With `CC1CCC(C(=O)N(c2cc(-c3ccccc3)sc2C(=O)O)C2CCN(C)CC2)CC1` (centres unmarked) the figure was < 5 µM.
